Reference: PubChem BioAssay AID504761 (Drosophila RNAi Screening Center, 2011)
In all, the deposit lists about 22,000 reagents; this is a random part of those with a known target gene and a result. In the full data, 116 (0.52%) were called active. 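Calls depend on retest data that are not deposited; infection was ranked per plate without normalising between plates; the unit of the infection score is not given.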 A number with no mark means an inactive call. A plus sign joins genes that one reagent is predicted to hit. Further read-outs or replicates are left out here. Reagent sequences are not shown. Not given: the amount of reagent, the time to read-out.

Assay: 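Insect host genes that dengue virus relies on to spread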 (primary screen)
System: D.Mel-2 cells from Drosophila
Reagents: long dsRNA against Drosophila genes
Treatment: infection with dengue virus type 2; dose and infection time not stated
Measured: 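Per well on two replicate plates, imaging gave the percent of cells positive for viral envelope protein, ranked by infection, and a nuclear count of cells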
Direction: infection score: higher = more virus-infected cells
Hit rule: 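Very low infection ranking in both replicate wells (chance probability at most 0.065), then a retest showing infection dropped 1.5-fold or more at p below 0.05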
Calls: active = confirmed: knock-down lowers infection; inactive = not picked or not confirmed

gene | amplicon | infection score, replicate 1
tbrd-3 | DRSC04295 | 7.69
tbrd-3 | DRSC26310 | 6.26
CG18139 (retired record) + Hmx | DRSC15307 | 8.73
Osi7 (Osiris 7) | DRSC12176 | 2.32
Osi7 (Osiris 7) | DRSC27146 | 4.62
lin (lines) | DRSC07644 | 14.7
lin (lines) | DRSC28074 | 27.2
CG31103 | DRSC22324 | 1.45
CG13717 (retired record) | DRSC08116 | 5.87
CG13717 (retired record) | DRSC08324 | 3.56
CG13717 (retired record) | DRSC21337 | 5.21
CG13717 (retired record) | DRSC23087 | 1.82
CG13717 (retired record) | DRSC28552 | 18.4
Amy-d + Amy-p | DRSC21242 | 1.19
Amy-d + Amy-p | DRSC24129 | 1.54
fred (friend of echinoid) | DRSC00349 | 8.26
fred (friend of echinoid) | DRSC00599 | 3.17
fred (friend of echinoid) | DRSC00601 | 2.26
fred (friend of echinoid) | DRSC00602 | 3.08
fred (friend of echinoid) | DRSC21906 | 1.35
CG7744 | DRSC07036 | 29.5
CG11666 | DRSC22379 | 3.32
CG13067 | DRSC09950 | 1.73

Targets listed so far whose gene name begins with O or o:
gene | amplicon | infection score, replicate 1
Osi7 (Osiris 7) | DRSC12176 | 2.32
Osi7 (Osiris 7) | DRSC27146 | 4.62
